From patent publication US20260061042A1, “POLYNUCLEOTIDE COMPOSITIONS AND USES THEREOF” (Pfizer Inc., priority 2024, published 2026)

System: ExpiCHO cells
Experiment: Expression of PapG recombinant proteins in ExpiCHO cells (Western blot, Octet)
Type: cell-based
Details: plasmid transfected ExpiCHO cells

B1: PapG^LD N96S WTv1: WT PapG lectin domain (V1, first PapG operon), N96S removes non-native glycosylation, His-tagged; SEQ ID NO: 13 (protein)
chain: METDTLLLWVLLLWVPGSTGWNNIVFYSLGNVNSYQGGNVVITQRPQFITSWRPGIATVTWNQCNGPEFADGSWAYYREYIAWVVFPKKVMTKNGYPLFIEVHNKGSWSEENTGDSDSYFFLKGYKWDERAFDAGNLCQKPGETTRLTEKFNDIIFKVALPADLPLGDYSVTIPYTSGIQRHFASYLGARFKIPYNVAKTLPRENEMLFLFKNIGG
modifications: His tag
- expression level in culture supernatant: slightly higher levels compared to WT PapGLD
